Laboratory results from US20210236539A1, “METHOD OF PROPHYLAXIS OF ZIKA VIRUS INFECTION” (priority 2016, published 2021).

Assay: Cytotoxicity (CC50) in the West Nile Fever virus assay

## [BHAlys][Lys]16[CONH-Ph-3,5-(SO3Na)2]32
NR readout
  CC50 NR: > 100 µg/mL
VIS readout
  CC50 VIS: > 100 µg/mL
